Pooled drug test results. Numbers come from NIAID ChemDB, via PubChem.

Common to all: tests in culture; agent: Hepatitis C virus

Neighbouring rows are from separate reports. ECn: concentration that inhibits the pathogen or its effect by n%. Fold resistance: result on the changed form divided by that on wild type. Inhibition is in % at the dose shown (toxicity tests: loss of growth or viability). An empty or dashed field is not shown. a–b is a range or a potency band.

| structure | cell line | mutations | strain | method | endpoint | dose | setting | value |
|---|---|---|---|---|---|---|---|---|
| N#Cc1cccc(-c2ccc3nc(NCc4ccc(S(N)(=O)=O)cc4)nc(NCC(F)(F)F)c3n2)c1 | - | - | - | replicon | EC50 | - | - | <0.1 µM |
| C=C(C)[C@@H]1CC[C@]2(C(=O)O)CC[C@]3(C)[C@H](CC[C@@H]4[C@@]5(C)CC[C@H](O)C(C)(C)[C@@H]5CC[C@]43C)[C@@H]12 | Huh7 | - | - | luciferase / entry | inhibition | 1 µM | - | 4.2% |
| CC1(C)CC[C@@]2(C(=O)NCc3cn(Cc4ccc(Cn5cc(CNC(=O)[C@]67CCC(C)(C)CC6C6=CCC8[C@@]9(C)CC[C@H](O)C(C)(C)C9CC[C@@]8(C)[C@]6(C)C[C@H]7O)nn5)cc4)nn3)C(C1)C1=CCC3[C@@]4(C)CC[C@H](O)C(C)(C)C4CC[C@@]3(C)[C@]1(C)C[C@H]2O | Huh7 | - | - | luciferase / entry | inhibition | 5 µM | - | 90.7% |
| NS(=O)(=O)c1ccc(CNc2nc(NCC(F)(F)F)c3nc(-c4ccc(F)cc4)ccc3n2)c(F)c1 | - | - | - | replicon | EC50 | - | - | <0.1 µM |
| CC1CCC(C(=O)N(c2cc(C#CC(C)(C)C)sc2C(=O)O)C2CCC(O)CC2)CC1 | Huh7 | M423V | Con1 (gt 1b) | luciferase | fold resistance | - | - | 18 |
| CCOc1nc(NCc2ccc(S(N)(=O)=O)cc2)nc2ccc(-c3cnc(N)s3)nc12 | - | - | - | replicon | EC50 | - | - | <0.1 µM |
| CC(=O)OC[C@]12[C@H](OC(C)=O)[C@H](OCc3ccccc3)[C@@H]3[C@@H](OC(C)=O)[C@@]14O[C@@]3(C)COC(=O)c1cccnc1C(C)C(C)C(=O)O[C@@H]([C@H](OC(C)=O)[C@@H]2OC(C)=O)[C@]4(C)O | Huh7.5 | - | Cell culture J6/JFH-1 | - | inhibition | 50 µM | - | 96% |
| COC(=O)N[C@H](C(=O)N1CCCC1c1ncc(-c2ccc(-c3ccc(-c4cnc([C@@H]5CC(C)CN5C(=O)[C@@H](NC(=O)CO)C(C)C)[nH]4)cc3)cc2)[nH]1)C(C)C | ET | Y93H | 1b | luciferase | EC50 | - | - | 0.000048 µM |
| CCCCc1ncc(-c2ccc(CN3CCC(C(=O)Nc4cccc(-c5cccc(F)c5)c4)CC3)cc2)[nH]1 | Huh7 | - | JFH-1 | PCR | inhibition | 5 µM | - | ≥40% |
| C[C@H]1[C@H](C)CC[C@]2(C(=O)O)CC[C@]3(C)C(=CC[C@@H]4[C@@]5(C)CC[C@H](O)C(C)(C)[C@@H]5CC[C@]43C)[C@H]12 | Huh7 | - | - | luciferase / entry | inhibition | 5 µM | pseudotyped | 3.9% |
| COc1cc([C@H]2O[C@@H](c3cc(OC)c4c(c3)OCO4)[C@@H](C)[C@@H]2C)cc2c1OCO2 | Huh7.5 | - | Subgenomic replicon JFH-1 | luciferase | inhibition | 25 µM | - | 87% |
| CC1(C)CC[C@@]2(C(=O)NCc3cn(CCOCCn4cc(CNC(=O)[C@]56CCC(C)(C)CC5C5=CCC7[C@@]8(C)CC[C@H](O)C(C)(C)C8CC[C@@]7(C)[C@]5(C)C[C@H]6O)nn4)nn3)C(C1)C1=CCC3[C@@]4(C)CC[C@H](O)C(C)(C)C4CC[C@@]3(C)[C@]1(C)C[C@H]2O | Huh7 | - | - | luciferase / entry | inhibition | 5 µM | - | 83.7% |
| O=C1N/C(=N\c2nnc(-c3ccc(Cl)cc3)s2)S/C1=C\c1ccccc1Cl | Huh7/Rep-Feo1b | - | - | MTS | inhibition | 100 µM | - | 0% |
| CC(CCOc1ccc(-c2ccccc2)cc1)CCOc1cccc(NC(N)=S)c1 | Ava5-EG(delta4AB)SEAP | - | - | reporter gene / fluorescence | EC50 | - | - | 0.001–1 µM |
| O=C(Nc1cccc(-c2cscn2)c1)C1CCN(C/C=C/c2ccc(F)cc2)CC1 | Huh7 | - | JFH-1 | PCR | inhibition | 15 µM | - | <40% |
| COC(=O)/C=C/c1ccc(NC(=O)C2(NC(=O)c3ccc4c(C5CCCCC5)c5n(c4c3)C[C@@H](O)[C@@H](O)c3ccccc3-5)CCCC2)cc1 | Huh7 | - | - | replicon | EC50 | - | - | 0.01–1 µM |
| O=C(N[C@@H](C(=O)N1CCC[C@H]1c1ncc(-c2ccc(-c3ccc(-c4cnc([C@@H]5CCCN5C(=O)[C@H](NC(=O)C5CC5)c5ccccc5)s4)cc3)cc2)s1)c1ccccc1)C1CC1 | Huh7.5 | Y93H | genotype 1b | luciferase / reporter gene | fold resistance | - | - | 939 |
| NC(=S)Nc1cccc(OCCCCCOc2ccc(F)cc2F)c1 | Ava5-EG(delta4AB)SEAP | - | - | reporter gene / fluorescence | EC50 | - | - | 0.001–1 µM |
| O=C(Nc1cccc(-c2cccc(F)c2)c1)C1CCN(Cc2cccc(O)c2)CC1 | Huh7 | - | JFH-1 | PCR | inhibition | 15 µM | - | ≥40% |
| O=C(O)/C=C/c1ccc(NC(=O)C2(NC(=O)c3ccc4c(C5CCCCC5)c5n(c4c3)C[C@@H](O)[C@@H](O)c3ccccc3-5)CCCC2)cc1 | Huh7 | - | - | replicon | EC50 | - | - | 0.01–1 µM |
| CC1(C)CC[C@@]2(C(=O)NCc3cn(Cc4cccc(Cn5cc(CNC(=O)[C@]67CCC(C)(C)CC6C6=CCC8[C@@]9(C)CC[C@H](O)C(C)(C)C9CC[C@@]8(C)[C@]6(C)C[C@H]7O)nn5)c4)nn3)C(C1)C1=CCC3[C@@]4(C)CC[C@H](O)C(C)(C)C4CC[C@@]3(C)[C@]1(C)C[C@H]2O | Huh7 | - | - | luciferase / entry | inhibition | 1 µM | - | 59.2% |

2 of the rows above, restated:

structure,cell line,mutations,strain,method,endpoint,dose,setting,value
NC(=S)Nc1cccc(OCCCCCOc2ccc(F)cc2F)c1,Ava5-EG(delta4AB)SEAP,-,-,reporter gene / fluorescence,EC50,-,-,0.001–1 µM
COC(=O)N[C@H](C(=O)N1CCCC1c1ncc(-c2ccc(-c3ccc(-c4cnc([C@@H]5CC(C)CN5C(=O)[C@@H](NC(=O)CO)C(C)C)[nH]4)cc3)cc2)[nH]1)C(C)C,ET,Y93H,1b,luciferase,EC50,-,-,0.000048 µM